According to patent US20100104550:

What was measured:
[1] = biological target: purified human Hsc70 (Stressgen), P11142
[2] = biological target: purified human Hsp70 (Stressgen), P0DMV8

B1: Subtilase cytotoxin (SubAB) holotoxin (protein)
chain 1: EKPWYFDAIGLTETTMSLTDKNTPVVVSVVDSGVAFIGGLSDSEFAKFSFTQDGSPFPVKKSEALYIHGTAMASLIASRYGIYGVYPHALISSRRVIPDGVQDSWIRAIESIMSNVFLAPGEEKIINISGGQKGVASASVWTELLSRMGRNNDRLIVAAVGNDGADIRKLSAQQRIWPAAYHPVSSVNKKQDPVIRVAALAQYRKGETPVLHGGGITGSRFGNNWVDIAAPGQNITFLRPDAKTGTGSGTSEATAIVSGVLAAMTSCNPRATATELKRTLLESADKYPSLVDKVTEGRVLNAEKAISMFCKKNYIPVRQGRMSEEL
chain 2: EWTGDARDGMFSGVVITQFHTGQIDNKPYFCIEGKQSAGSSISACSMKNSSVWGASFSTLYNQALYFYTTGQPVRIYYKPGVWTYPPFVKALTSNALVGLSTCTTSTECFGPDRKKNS
in vitro cleavage of purified chaperone, SDS-PAGE [1]: SubAB did not cleave purified human Hsp70 and Hsc70 proteins in vitro | in vitro cleavage of purified chaperone, SDS-PAGE [2]: SubAB did not cleave purified human Hsp70 and Hsc70 proteins in vitro
